System: rat hepatic microsomal PTPases
Assay: Inhibition of tri-phosphorylated insulin receptor dodecaphosphopeptide dephosphorylation by rat hepatic PTPases (malachite green)
Format: biochemical
Conditions: PTPase activity, compound at 50 µM, rat liver microsomal fraction

**Q.** Which “% Change from Control” value does the source give for `O=[As]c1ccccc1` (stereo not shown) here?
**A.** The value was -57%.

From patent publication EP1077967B1, “BIPHENYL OXO-ACETIC ACIDS USEFUL IN THE TREATMENT OF INSULIN RESISTANCE AND HYPERGLYCEMIA” (Wyeth, priority 1998, dated 1999)
